Anti-infective test results gathered from many reports (values: NIAID ChemDB through PubChem).

All rows: whole-cell or culture tests; agent: Herpes simplex virus 2; cell line: E6SM; endpoint: EC50

Conditions beyond the fields shown may differ between rows. An empty or dashed field is not shown. ECn: concentration that inhibits the pathogen or its effect by n%.

structure,strain,method,result
NC(=O)CSc1ncnc2c1cnn2COCCO,G,cytopathic effect,>400 µg/mL
Nc1ncnc2c1ncn2[C@@H]1C=C(CO)[C@@H](O)[C@H]1O,G,cytopathic effect,≥40 µg/mL
O=c1[nH]cnc2c1ncn2C1C[C@H](CO)[C@@H](CO)C1,G,,>100 µg/mL
N#CC1=CN(COCCO)S(=O)(=O)N=C1N,G,,>400 µg/mL
CC1(CO)CCC(Cn2nnc3c(Cl)nc(N)nc32)C1(C)C,G,cytopathic effect,>100 µg/mL
COC(CI)c1cc([C@H]2C[C@H](O)[C@@H](CO)O2)c(F)cc1F,G,cytopathic effect,>80 µg/mL
COC(=O)[C@]1(C)CCC[C@]2(C)c3cc(Br)c4nc(C)[nH]c4c3CCC12,,plaque count,>4 µg/mL
CC1(CO)CCC(Cn2nnc3c(Cl)ncnc32)C1(C)C,G,cytopathic effect,>200 µg/mL
O=c1[nH]c(=O)n(C2C[C@H](CO)[C@@H](CO)C2)cc1I,G,,>100 µg/mL
CC1(CO)CCC(Cn2nnc3c(N)ncnc32)C1(C)C,G,cytopathic effect,>100 µg/mL
Nc1nc2c(ncn2[C@@H]2C=C[C@H](CO)[C@@H](O)C2)c(=O)[nH]1,G,cytopathic effect,0.05 µg/mL
OC[C@H]1O[C@@H](c2cc(C#CBr)c(F)cc2F)C[C@@H]1O,196,cytopathic effect,>400 µg/mL
CC1(C)[C@@H](CCO)C[C@H]1n1cnc2c(=O)[nH]cnc21,G,cytopathic effect,>400 µg/mL
CC(C)Nc1ncnc2c1ncn2C1C[C@H](CO)[C@@H](CO)C1,G,,>100 µg/mL
OC[C@H]1O[C@@H](c2cc(C(O)CBr)c(F)cc2F)C[C@@H]1O,G,cytopathic effect,>3.2 µg/mL
CC1(CO)CCC(Cc2nc3ncnc(N)c3[nH]2)C1(C)C,G,cytopathic effect,200 µg/mL
CO[C@H](CO)[C@@H](O)CCn1cc(C)c(=O)[nH]c1=O,LYONS,cytopathic effect,>400 µg/mL
Nc1nc(N)c2ncn(C[C@@H](CO)OCP(=O)(O)O)c2n1,G 196 LYONS,cytopathic effect,1 µM
CC=NC(=N)c1nc(-c2cccc(C)c2)n(COCCO)n1,G,cytopathic effect,>10 µg/mL
Nc1cc([C@H]2C[C@H](O)[C@@H](CO)O2)c(F)cc1F,G,cytopathic effect,>400 µg/mL
[N-]=[N+]=NC(CBr)c1cc([C@H]2C[C@H](O)[C@@H](CO)O2)c(F)cc1F,196,cytopathic effect,>400 µg/mL
C[C@@H](Cn1cnc2c(N)nc(N)nc21)OCP(=O)(O)O,G 196 LYONS,cytopathic effect,232 µM
CC=NC(=N)c1nc(-c2ccccc2)n(Cc2ccccc2)n1,G,cytopathic effect,>4 µg/mL
CC1(C)[C@@H](CCO)C[C@H]1n1cnc2c(=O)[nH]c(N)nc21,G,cytopathic effect,>400 µg/mL
Cc1cc([C@H]2C[C@H](O)[C@@H](CO)O2)c(F)cc1F,196,cytopathic effect,>400 µg/mL
COC(=O)Nc1nc2c3c(ccc2[nH]1)[C@@]1(C)CCC[C@@](C)(C(=O)OC)C1CC3,,plaque count,>4 µg/mL
CO[C@@H]1[C@H](O)[C@@H](CO)O[C@H]1c1ccccc1,G,cytopathic effect,>400 µg/mL
OC[C@H]1O[C@@H](c2cc(Cl)c(F)cc2F)C[C@@H]1O,196,cytopathic effect,>400 µg/mL
CCCCOC[C@H]1O[C@@H]2CC(C)(C)C[C@@H]2[C@H]1OCCCC,G,cytopathic effect,>80 µg/mL
C=C(N=CC)c1nc(-c2ccccc2)n([C@@H]2O[C@H](CO)[C@@H](O)[C@H]2O)n1,G,cytopathic effect,200 µg/mL
CC1(CO)CCC(Cn2cnc3c(N)nc(N)nc32)C1(C)C,G,cytopathic effect,150 µg/mL
Nc1nc(N)c2ncn(C[C@@H](CF)OCP(=O)(O)O)c2n1,G 196 LYONS,cytopathic effect,≥600 µM
COC(=O)[C@]1(C)CCC[C@]2(C)c3ccc4nc5c(nc4c3CCC12)CCCC5,,plaque count,>4 µg/mL
OC[C@H]1O[C@H](c2cc(F)c(F)cc2F)C[C@@H]1O,G,cytopathic effect,>400 µg/mL
Nc1ncc2ncn(C[C@H](CF)OCP(=O)(O)O)c2n1,G 196 LYONS,cytopathic effect,>600 µM
C=Cc1cc([C@H]2C[C@H](O)[C@@H](CO)O2)c(F)cc1F,LYONS,cytopathic effect,>400 µg/mL
Nc1ncc2ncn(C[C@@H](CO)OCP(=O)(O)O)c2n1,G 196 LYONS,cytopathic effect,23 µM
CC1(C)[C@@H](CCO)C[C@H]1n1nnc2c(Cl)nc(N)nc21,G,cytopathic effect,>100 µg/mL
CO[C@H](CO)[C@@H](O)CCn1cnc2c(=O)[nH]c(N)nc21,LYONS,cytopathic effect,>400 µg/mL
CC[C@@H](O)C1=C[C@@H](n2cnc3c(N)ncnc32)[C@H](O)[C@@H]1O,G,cytopathic effect,>400 µg/mL
Nc1ncnc2c1ncn2CC[C@H](O)CCO,LYONS,cytopathic effect,>400 µg/mL
CC=NC(=N)c1nc(-c2ccc(OC)cc2)n(COCCO)n1,G,cytopathic effect,>200 µg/mL
CC(Sc1ncnc2c1cnn2COCC(O)CO)C(N)=O,G,cytopathic effect,>400 µg/mL
CC1(CO)CCC(Cn2cnc3c(=O)[nH]c(N)nc32)C1(C)C,G,cytopathic effect,>400 µg/mL
O=c1c2ncn(COC(CO)CO)c2nc2[nH]c(-c3ccccc3)cn12,G,cytopathic effect,0.3 µg/mL
CC=NC(=N)c1nc(-c2ccc(C)cc2)n(Cc2ccccc2)n1,G,cytopathic effect,>4 µg/mL
CCC(Sc1ncnc2c1cnn2CCCCO)C(N)=O,G,cytopathic effect,>400 µg/mL
OC[C@H]1O[C@H](c2cc(Cl)c(F)cc2F)C[C@@H]1O,LYONS,cytopathic effect,>400 µg/mL
Nc1nc(N)c2ncn(C[C@H](CO)OCP(=O)(O)O)c2n1,G 196 LYONS,cytopathic effect,6.3 µM
CC[Si]1(C(C)C)O[C@H]2[C@@H](O)[C@H](c3ccccc3)O[C@@H]2CO[Si](C(C)C)(C(C)C)O1,G,cytopathic effect,>3.2 µg/mL
C=C[C@@H](O)C1=C[C@@H](n2cnc3c(N)ncnc32)[C@H](O)[C@@H]1O,G,cytopathic effect,>200 µg/mL
CC(=O)OCCOCN1C=CC(=O)NS1(=O)=O,LYONS,,>400 µg/mL
CC=NC(=N)c1nc(-c2cccc(OC)c2)n(C/C=C/c2ccccc2)n1,G,cytopathic effect,>10 µg/mL
C[C@@]1(O)[C@@H](CO)O[C@@H](n2cnc3c(N)ncnc32)[C@@H]1O,G,cytopathic effect,20 µg/mL
O=c1[nH]c(=O)n([C@H]2C[C@H](O)[C@@H](CO)O2)cc1/C=C/Br,196,cytopathic effect,>80 µg/mL
COC(=O)[C@]1(C)CCC[C@]2(C)c3ccc4[nH]cnc4c3CCC12,,plaque count,>4 µg/mL
Cc1cc([C@@H]2C[C@H](O)[C@@H](CO)O2)c(Cl)cc1F,196,cytopathic effect,>400 µg/mL
CC[C@H](O)C1=C[C@@H](n2cnc3c(N)ncnc32)[C@H](O)[C@@H]1O,G,cytopathic effect,>200 µg/mL
CCOC(=O)C1=CN(COCCO)S(=O)(=O)NC1=O,LYONS,,>400 µg/mL
OC[C@H]1O[C@@H](c2cc(C(F)(F)F)c(F)cc2F)C[C@@H]1O,G,cytopathic effect,>400 µg/mL
Nc1ncnc2c1ncn2C[C@H](CF)OCP(=O)(O)O,G 196 LYONS,cytopathic effect,>1200 µM
Nc1ncnc2c1ncn2[C@@H]1O[C@H](CO)[C@](O)(C(F)(F)F)[C@H]1O,G,cytopathic effect,400 µg/mL

A second listing of 7 rows from above:

structure	strain	method	result
Nc1nc(N)c2ncn(C[C@@H](CF)OCP(=O)(O)O)c2n1	G 196 LYONS	cytopathic effect	≥600 µM
Cc1cc([C@H]2C[C@H](O)[C@@H](CO)O2)c(F)cc1F	196	cytopathic effect	>400 µg/mL
Nc1nc(N)c2ncn(C[C@@H](CO)OCP(=O)(O)O)c2n1	G 196 LYONS	cytopathic effect	1 µM
Nc1ncnc2c1ncn2C[C@H](CF)OCP(=O)(O)O	G 196 LYONS	cytopathic effect	>1200 µM
C[C@@]1(O)[C@@H](CO)O[C@@H](n2cnc3c(N)ncnc32)[C@@H]1O	G	cytopathic effect	20 µg/mL
N#CC1=CN(COCCO)S(=O)(=O)N=C1N	G		>400 µg/mL
CC=NC(=N)c1nc(-c2ccc(OC)cc2)n(COCCO)n1	G	cytopathic effect	>200 µg/mL